{"sequences": {"note": "Protein sequences, listed by entry. Tags and fused reporters are not part of them. Lines headed by an entry give the natural chain unless they say otherwise; changes in a name come on top. Residues count along the entry.", "UniProt P36544, 23-502 limits assumed": "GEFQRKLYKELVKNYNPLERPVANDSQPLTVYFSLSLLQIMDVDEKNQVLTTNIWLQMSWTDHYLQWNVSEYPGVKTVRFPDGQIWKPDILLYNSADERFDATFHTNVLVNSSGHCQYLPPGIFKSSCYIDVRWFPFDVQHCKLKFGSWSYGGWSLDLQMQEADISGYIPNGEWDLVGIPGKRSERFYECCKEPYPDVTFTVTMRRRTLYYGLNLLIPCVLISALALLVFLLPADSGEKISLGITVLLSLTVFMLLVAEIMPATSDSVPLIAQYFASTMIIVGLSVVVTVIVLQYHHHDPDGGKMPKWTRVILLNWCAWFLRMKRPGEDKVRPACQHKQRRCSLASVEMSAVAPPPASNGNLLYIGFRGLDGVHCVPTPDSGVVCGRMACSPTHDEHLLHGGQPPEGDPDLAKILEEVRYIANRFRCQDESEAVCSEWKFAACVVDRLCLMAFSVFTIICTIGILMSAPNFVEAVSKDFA", "UniProt P02710": "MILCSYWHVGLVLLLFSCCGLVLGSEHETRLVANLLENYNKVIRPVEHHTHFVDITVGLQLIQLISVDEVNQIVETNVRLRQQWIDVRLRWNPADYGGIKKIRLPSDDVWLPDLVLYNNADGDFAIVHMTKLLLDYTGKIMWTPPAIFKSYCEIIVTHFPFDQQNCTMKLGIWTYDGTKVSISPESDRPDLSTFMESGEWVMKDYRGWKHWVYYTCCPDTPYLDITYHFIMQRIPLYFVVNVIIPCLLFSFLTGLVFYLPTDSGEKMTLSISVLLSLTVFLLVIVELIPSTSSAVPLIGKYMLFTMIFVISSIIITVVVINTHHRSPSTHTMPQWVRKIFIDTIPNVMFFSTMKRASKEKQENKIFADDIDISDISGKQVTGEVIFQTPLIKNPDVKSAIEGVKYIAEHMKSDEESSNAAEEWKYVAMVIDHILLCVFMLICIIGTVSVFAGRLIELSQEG", "UniProt P02714": "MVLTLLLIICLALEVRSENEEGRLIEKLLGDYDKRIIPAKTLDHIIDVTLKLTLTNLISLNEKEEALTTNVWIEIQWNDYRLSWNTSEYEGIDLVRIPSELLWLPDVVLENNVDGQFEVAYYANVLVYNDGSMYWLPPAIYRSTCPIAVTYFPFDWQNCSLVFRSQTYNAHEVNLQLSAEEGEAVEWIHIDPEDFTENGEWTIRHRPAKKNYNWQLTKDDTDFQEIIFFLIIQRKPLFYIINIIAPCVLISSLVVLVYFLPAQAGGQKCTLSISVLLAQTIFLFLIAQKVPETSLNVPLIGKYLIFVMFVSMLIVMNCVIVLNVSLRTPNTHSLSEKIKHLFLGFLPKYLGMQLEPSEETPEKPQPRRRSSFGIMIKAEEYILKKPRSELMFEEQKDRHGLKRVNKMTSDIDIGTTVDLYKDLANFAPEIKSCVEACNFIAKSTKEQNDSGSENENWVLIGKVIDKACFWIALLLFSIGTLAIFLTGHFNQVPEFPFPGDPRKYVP", "UniProt P02718": "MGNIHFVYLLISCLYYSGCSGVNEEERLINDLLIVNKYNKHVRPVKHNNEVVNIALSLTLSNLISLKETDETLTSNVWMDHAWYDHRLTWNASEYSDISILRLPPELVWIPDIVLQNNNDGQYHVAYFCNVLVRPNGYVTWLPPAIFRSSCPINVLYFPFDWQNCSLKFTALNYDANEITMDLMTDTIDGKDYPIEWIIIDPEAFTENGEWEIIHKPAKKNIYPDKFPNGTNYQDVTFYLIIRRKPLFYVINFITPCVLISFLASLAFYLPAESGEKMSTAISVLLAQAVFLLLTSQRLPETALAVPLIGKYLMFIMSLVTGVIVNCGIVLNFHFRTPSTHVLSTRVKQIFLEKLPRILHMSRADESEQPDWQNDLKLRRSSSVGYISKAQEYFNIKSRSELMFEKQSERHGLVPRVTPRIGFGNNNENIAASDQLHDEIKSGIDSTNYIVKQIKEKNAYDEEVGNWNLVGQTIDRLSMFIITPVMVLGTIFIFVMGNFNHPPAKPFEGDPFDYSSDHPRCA"}, "source": "paper PMC10758494", "about": "(Frontiers in Pharmacology, 2023)", "key": {"[1]": {"target": "human α7 nAChR expressed in GH4C1 cells (Homo sapiens, UniProt P36544)", "assay": "Competition radioligand assay with 125I-labeled α-bungarotoxin, GH4C1 cells", "conditions": "compound 50 μM"}, "[2]": {"target": "muscle-type T. californica nAChR (Tetronarce californica, UniProt P02710+P02714+P02718)", "assay": "Competition radioligand assay with 125I-labeled α-bungarotoxin, T. californica membranes", "conditions": "read-out: IC50 ± SEM, competition with 125I-αBgt for binding to T. californica nAChR, T. californica electric organ membranes"}}, "note": "Where two headings read alike, the source gives them in different places.", "data": [{"smiles": "N=C(N)NCCC[C@H](N)C(=O)NCCCNCCCNCCCCCNC(=O)[C@H](CC(N)=O)NC(=O)Cc1ccc(O)cc1O", "note": "[AgTx-636, argiotoxin-636]", "values": [{"measurement": "Inhibition of 125I-αBgt binding to human α7 nAChR", "setting": "[1]", "value": "≤ 20", "unit": "%"}, {"measurement": "IC50", "setting": "[2]", "value": 15.3, "unit": "µM"}, {"measurement": "IC50", "setting": "[2]; listed as Argiotoxin-636", "value": 15, "unit": "µM"}]}]}
